# Measured values taken from patent US6689782B2, “Fungal efflux pump inhibitors” (priority 2001, dated 2004).
# What was measured:
# [1] = tested on: C. glabrata YEM19 (over-expressing the CgCDR1 and CgCDR2 pumps); test: checkerboard assay / broth microdilution, potentiation of fluconazole vs. C. glabrata; conditions: Nakaseomyces glabratus, 48 h
# [2] = tested on: Candida albicans YEM15 (over-expressing the CDR1 and CDR2 pumps); test: checkerboard assay / broth microdilution, potentiation of fluconazole vs. C. albicans; conditions: 48 h
Compound,MIC [1],MIC [2]
COc1ccc(N(C(=O)Nc2cccc(Cl)c2)C(C)c2nc3cc(F)ccc3c(=O)n2N2CCN(C)CC2)c(OC)c1 (racemic) [Compound 215],> 32 µg/mL,
COc1ccc(N(C(=O)Nc2ccc(Cl)cc2)C(C)c2nc3cc(F)ccc3c(=O)n2N2CCN(C)CC2)c(OC)c1 (racemic) [Compound 216],> 32 µg/mL,
COc1ccc(N(C(=O)Nc2cccc(Cl)c2)C(C)c2nc3cc(F)c(F)cc3c(=O)n2N2CCN(C)CC2)c(OC)c1 (racemic) [Compound 220],> 32 µg/mL,
COc1ccc(N(C(=O)Nc2cccc(Cl)c2)C(C)c2nc3cc(Cl)ccc3c(=O)n2N2CCN(C)CC2)c(OC)c1 (racemic) [Compound 222],16 µg/mL,
COc1ccc(N(C(=O)Nc2cccc(F)c2)C(C)c2nc3cc(Cl)ccc3c(=O)n2N2CCN(C)CC2)c(OC)c1 (racemic) [Compound 223],32 µg/mL,
COc1ccc(N(C(=O)Nc2ccc(OC(F)F)cc2)C(C)c2nc3cc(F)c(F)cc3c(=O)n2N2CCN(C)CC2)c(OC)c1 (racemic) [Compound 224],> 32 µg/mL,
COc1ccc(N(C(=O)Nc2ccc(OC(F)F)cc2)C(C)c2nc3cc(Cl)ccc3c(=O)n2N2CCN(C)CC2)c(OC)c1 (racemic) [Compound 225],32 µg/mL,
COc1ccc(N(C(=O)Nc2ccc(C#N)cc2)C(C)c2nc3cc(Cl)ccc3c(=O)n2N2CCN(C)CC2)c(OC)c1 (racemic) [Compound 227],> 32 µg/mL,
COc1ccc(N(C(=O)Nc2ccc3c(c2)OCO3)C(C)c2nc3cc(Cl)ccc3c(=O)n2N2CCN(C)CC2)c(OC)c1 (racemic) [Compound 228],> 32 µg/mL,
COc1ccc(N(C(=O)Nc2ccc(F)cc2)C(C)c2nc3ccccc3c(=O)n2N2CCN(c3nncs3)CC2)c(OC)c1 (racemic) [Compound 229],> 32 µg/mL,
COc1ccc(N(C(=O)Nc2ccc(F)cc2)C(C)c2nc3ccccc3c(=O)n2N2CCN(C(=O)C3CCCC3N)CC2)c(OC)c1 (racemic) [Compound 231],> 32 µg/mL,
COC(=O)NC1CCCC1C(=O)N1CCN(n2c(C(C)N(C(=O)Nc3ccc(F)cc3)c3ccc(OC)cc3OC)nc3ccccc3c2=O)CC1 (racemic) [Compound 232],> 32 µg/mL,
COC(=O)NC1CCN(C(=O)N2CCN(n3c(C(C)N(C(=O)Nc4ccc(F)cc4)c4ccc(OC)cc4OC)nc4ccccc4c3=O)CC2)C1 (racemic) [Compound 234],> 32 µg/mL,
COC(=O)N[C@@H]1CCN(C(=O)N2CCN(n3c(C(C)N(C(=O)Nc4ccc(F)cc4)c4ccc(OC)cc4OC)nc4ccccc4c3=O)CC2)C1 (mixture of isomers) [Compound 235],> 32 µg/mL,
COC(=O)N[C@@H]1CCN(C(=O)N2CCN(n3c(C(C)N(C(=O)Nc4ccc(F)cc4)c4ccc(OC)cc4OC)nc4cc(F)c(F)cc4c3=O)CC2)C1 (mixture of isomers) [Compound 236],> 32 µg/mL,
COC(=O)N[C@H]1CCN(C(=O)N2CCN(n3c(C(C)N(C(=O)Nc4ccc(F)cc4)c4ccc(OC)cc4OC)nc4ccccc4c3=O)CC2)C1 (mixture of isomers) [Compound 237],> 32 µg/mL,
COc1ccc(N(C(=O)Nc2ccc(F)cc2)C(C)c2nc3ccc(Cl)cc3c(=O)n2N2CCN(C(=O)C3CCCN3)CC2)c(OC)c1 (racemic) [Compound 238],> 32 µg/mL,
COc1ccc(N(C(=O)Nc2ccc(F)cc2)C(C)c2nc3cc(Cl)ccc3c(=O)n2N2CCN(C(=O)[C@@H]3CCCN3)CC2)c(OC)c1 (mixture of isomers) [Compound 239],> 32 µg/mL,
COc1ccc(N(C(=O)Nc2ccc(F)cc2)C(C)c2nc3ccccc3c(=O)n2N2CCN(C(=O)c3nccnc3N)CC2)c(OC)c1 (racemic) [Compound 241],> 32 µg/mL,
COc1ccc(N(C(=O)Nc2ccc(F)cc2)C(C)c2nc3ccccc3c(=O)n2N2CCN(C(=O)C3CNCCN3)CC2)c(OC)c1 (racemic) [Compound 242],> 32 µg/mL,
COc1ccc(N(C(=O)Nc2ccc(F)cc2)C(C)c2nc3ccccc3c(=O)n2N2CCN(C(=O)C3CCCCN3)CC2)c(OC)c1 (racemic) [Compound 243],16 µg/mL,
COc1ccc(N(C(=O)Nc2ccc(F)cc2)C(C)c2nc3ccccc3c(=O)n2N2CCN(C(=O)[C@@H]3CCCN3C3CC3)CC2)c(OC)c1 (mixture of isomers) [Compound 245],> 32 µg/mL,
COc1ccc(N(C(=O)Nc2ccc(F)cc2)C(C)c2nc3ccccc3c(=O)n2N2CCN(C(=O)[C@@H]3CCCN3C)CC2)c(OC)c1 (mixture of isomers) [Compound 246],> 32 µg/mL,
COc1ccc(N(C(=O)Nc2ccc(F)cc2)C(C)c2nc3ccccc3c(=O)n2N2CCN(C(=O)C3CCCO3)CC2)c(OC)c1 (racemic) [Compound 247],> 32 µg/mL,
COc1ccc(N(C(=O)Nc2ccc(F)cc2)C(C)c2nc3ccccc3c(=O)n2N2CCN(C(=O)C3CCNC3)CC2)c(OC)c1 (racemic) [Compound 248],> 32 µg/mL,
COC(=O)N1CCC(C(=O)N2CCN(n3c(C(C)N(C(=O)Nc4ccc(F)cc4)c4ccc(OC)cc4OC)nc4ccccc4c3=O)CC2)C1 (racemic) [Compound 249],> 32 µg/mL,
COc1ccc(N(C(=O)Nc2ccc(F)cc2)C(C)c2nc3ccccc3c(=O)n2N2CCN(C(=O)C3CCN(S(C)(=O)=O)C3)CC2)c(OC)c1 (racemic) [Compound 250],> 32 µg/mL,

Compound,MIC [1],MIC [2]
COc1ccc(N(C(=O)Nc2ccc(F)cc2)C(C)c2nc3ccccc3c(=O)n2N2CCN(C(=O)C3CCN(S(=O)(=O)N(C)C)C3)CC2)c(OC)c1 (racemic) [Compound 251],> 32 µg/mL,
COc1ccc(N(C(=O)Nc2ccc(F)cc2)C(C)c2nc3ccccc3c(=O)n2N2CCN(C(=O)C3CCCNC3)CC2)c(OC)c1 (racemic) [Compound 254],> 32 µg/mL,
COc1ccc(N(C(=O)Nc2ccc(F)cc2)C(C)c2nc3ccccc3c(=O)n2N2CCN(C(=O)[C@@H]3CCC(=O)N3)CC2)c(OC)c1 (mixture of isomers) [Compound 260],> 32 µg/mL,
COc1ccc(N(C(=O)Nc2ccc(F)cc2)C(C)c2nc3ccccc3c(=O)n2N2CCN(C(=O)[C@@H](NS(C)(=O)=O)[C@H](C)O)CC2)c(OC)c1 (mixture of isomers) [Compound 273],> 32 µg/mL,
COc1ccc(N(C(=O)Nc2ccc(F)cc2)C(C)c2nc3ccccc3c(=O)n2N2CCN(C(=O)[C@H](Cc3c[nH]cn3)NC(=O)OC(C)(C)C)CC2)c(OC)c1 (mixture of isomers) [Compound 274],> 32 µg/mL,
CCOC(=O)N[C@@H](CCS(C)(=O)=O)C(=O)N1CCN(n2c(C(C)N(C(=O)Nc3ccc(F)cc3)c3ccc(OC)cc3OC)nc3ccccc3c2=O)CC1 (mixture of isomers) [Compound 275],> 32 µg/mL,
COC(=O)N[C@@H](CCS(C)(=O)=O)C(=O)N1CCN(n2c(C(C)N(C(=O)Nc3ccc(F)cc3)c3ccc(OC)cc3OC)nc3ccccc3c2=O)CC1 (mixture of isomers) [Compound 276],> 32 µg/mL,
COc1ccc(N(C(=O)Nc2ccc(F)cc2)C(C)c2nc3ccccc3c(=O)n2N2CCN(C(=O)[C@H](CCS(C)(=O)=O)NC(=O)C(F)F)CC2)c(OC)c1 (mixture of isomers) [Compound 277],> 32 µg/mL,
COC(=O)N[C@@H](CO)C(=O)N1CCN(n2c(C(C)N(C(=O)Nc3ccc(F)cc3)c3ccc(OC)cc3OC)nc3ccccc3c2=O)CC1 (mixture of isomers) [Compound 278],> 32 µg/mL,
CC[C@H](N)C(=O)N1CCN(n2c(C(C)N(C(=O)Nc3ccc(F)cc3)c3ccc(OC)cc3OC)nc3cc(F)ccc3c2=O)CC1 (mixture of isomers) [Compound 283],> 32 µg/mL,
CC[C@H](N)C(=O)N1CCN(n2c(C(C)N(C(=O)Nc3ccc(F)cc3)c3ccc(OC)cc3OC)nc3ccccc3c2=O)CC1 (mixture of isomers) [Compound 284],> 32 µg/mL,
COc1ccc(N(C(=O)Nc2ccc(F)cc2)C(C)c2nc3cc(Cl)ccc3c(=O)n2N2CCN(C(=O)C[C@H]3CCCN3)CC2)c(OC)c1 (mixture of isomers) [Compound 314],> 32 µg/mL,
COc1ccc(N(C(=O)Nc2ccc(F)cc2)C(C)c2nc3ccccc3c(=O)n2N2CCN(C(=O)CNS(C)(=O)=O)CC2)c(OC)c1 (racemic) [Compound 325],> 32 µg/mL,
COc1ccc(N(C(=O)Nc2ccc(F)cc2)C(C)c2nc3ccccc3c(=O)n2N2CCN(C(=O)C(C)(C)N)CC2)c(OC)c1 (racemic) [Compound 330],> 32 µg/mL,
COC(=O)NC(C)(C)C(=O)N1CCN(n2c(C(C)N(C(=O)Nc3ccc(F)cc3)c3ccc(OC)cc3OC)nc3ccccc3c2=O)CC1 (racemic) [Compound 337],,> 32 µg/mL
COc1ccc(N(C(=O)Nc2ccc(F)cc2)C(C)c2nc3cc(F)c(F)cc3c(=O)n2N2CCN(C(=O)C(C)(C)NC(=O)OC(C)(C)C)CC2)c(OC)c1 (racemic) [Compound 338],,> 32 µg/mL
COc1ccc(N(C(=O)Nc2ccc(F)cc2)C(C)c2nc3ccc(Cl)cc3c(=O)n2N2CCN(C(=O)C(C)(C)NC(=O)OC(C)(C)C)CC2)c(OC)c1 (racemic) [Compound 339],,> 32 µg/mL
CC(c1nc2ccccc2c(=O)n1N1CCN(C(=O)[C@@H]2CCCN2)CC1)N(C(=O)Nc1ccc(F)cc1)c1ccccc1OCC1CC1 (mixture of isomers) [Compound 345],> 32 µg/mL,
CC(c1nc2ccccc2c(=O)n1N1CCN(C(=O)[C@@H]2CCCN2)CC1)N(C(=O)Nc1ccc(F)cc1)c1ccc(OCC2CC2)cc1 (mixture of isomers) [Compound 346],> 32 µg/mL,
CC(c1nc2ccccc2c(=O)n1N1CCN(C(=O)[C@H](C)N)CC1)N(C(=O)Nc1ccc(F)cc1)c1ccc(OCC2CC2)cc1OCC1CC1 (mixture of isomers) [Compound 347],> 32 µg/mL,
COC(=O)N[C@@H](C)C(=O)N1CCN(n2c(C(C)N(C(=O)Nc3ccc(F)cc3)c3ccc(OCC4CC4)cc3OCC3CC3)nc3ccccc3c2=O)CC1 (mixture of isomers) [Compound 348],> 32 µg/mL,
COc1ccc(N(C(=O)Nc2ccc(C#N)cc2)C(C)c2nc3ccccc3c(=O)n2N2CCN(C)CC2)c(OC)c1 (centres unmarked) [Compound 213],> 32 µg/mL,
COc1ccc(N(C(=O)Nc2ccc(OC(F)F)cc2)C(C)c2nc3ccccc3c(=O)n2N2CCN(C)CC2)c(OC)c1 (centres unmarked) [Compound 214],> 32 µg/mL,
COC(=O)N[C@H](C(=O)N1CCN(n2c(C(C)N(C(=O)Nc3ccc(F)cc3)c3ccc(OC)cc3OC)nc3ccccc3c2=O)CC1)[C@H](C)O (some centres unmarked) [Compound 268],> 32 µg/mL,
COC(=O)NCC(=O)N1CCN(n2c(C(C)N(C(=O)Nc3ccc(F)cc3)c3ccc(OC)cc3OC)nc3ccccc3c2=O)CC1 (centres unmarked) [Compound 324],> 32 µg/mL,
COc1ccc(N(C(=O)Nc2ccc(F)cc2)C(C)c2nc3cc(F)c(F)cc3c(=O)n2N2CCN(C(=O)C(C)(C)N)CC2)c(OC)c1 (centres unmarked) [Compound 326],> 32 µg/mL,
